A mixed list of measured activities; the numbers were collected in NIAID ChemDB.

Shared fields: cytotoxicity tests; cells: VERO; read-out: CC50

An empty or dashed field is not shown. Rows are shuffled and stem from different studies. CCn: concentration that lowers growth or viability of the cells by n%.

compound	read by	result
CCCCCCCCCCCCCCCCCCCCCC[C@@H](O)C(=O)N[C@@H](CO)[C@H](O)[C@H](O)CCCCCCCCCCCCCC		>102 µg/mL
O=c1ccn([C@@H]2O[C@@H](CO)[C@H](O)C2(F)F)c(=O)[nH]1		>100 µM
O=C(N/N=C/c1ccc(C(F)(F)F)cc1)c1ccncc1		>63 µg/mL
CCCCc1ccc2nc(C)cc(NN)c2c1		13.4 µg/mL
Nc1ncnc2c1ncn2C1OC(CO)C=C1F		>100 µM
O=C(Nc1cccc(N2CCSCC2)c1)c1ccc(Cl)cc1		32 µg/mL
Nc1ncnc2c1ncn2O[C@H]1CO[C@@H](CO)O1		>100 µg/mL
Cc1c(CN2CCN(C)CC2)cc(-c2ccc(Cl)cc2)n1-c1ccccc1		4 µg/mL
O=C(NS(=O)(=O)OC[C@H]1O[C@@H](n2ccc(=O)[nH]c2=O)[C@H](O)[C@@H]1O)O[C@H]1O[C@H](COC(=O)c2ccccc2)[C@@H](OC(=O)c2ccccc2)[C@H](OC(=O)c2ccccc2)[C@@H]1OC(=O)c1ccccc1		200 µg/mL
CCCCCCCCCCCCCCCCC(=O)OC[C@H]1O[C@@H](O[C@H]2CC[C@@]3(C)C(=CC[C@H]4[C@@H]5CC[C@H]([C@H](C)CC[C@@H](CC)C(C)C)[C@@]5(C)CC[C@@H]43)C2)[C@H](O)[C@@H](O)[C@@H]1O		>102 µg/mL
O=C(N/N=C/C(F)(F)F)c1ccncc1		15 µg/mL
CCCCOc1ccc2nccc(N/N=C/c3ccc(OC)c4ccccc34)c2c1		3.4 µg/mL
CC(C)O[C@@H]1[C@H](OC(C)C)[C@@H](COS(=O)(=O)NC(=O)O[C@H]2O[C@H](COC(=O)c3ccccc3)[C@@H](OC(=O)c3ccccc3)[C@H](OC(=O)c3ccccc3)[C@@H]2OC(=O)c2ccccc2)O[C@H]1n1ccc(=O)[nH]c1=O		100 µg/mL
CCCCCCCCCCCCCCCCCCCC[C@@H](O)C(=O)N[C@@H](CO)[C@H](O)[C@H](O)CCCCCCCCCCCCCC		>102 µg/mL
CN1CCN(c2ccc(NCc3ccc(-c4ccccc4)cc3)cc2)CC1		1 µg/mL
CC(C)O[C@@H]1[C@H](OC(C)C)[C@@H](COS(=O)(=O)NC(=O)O[C@H]2O[C@H](COCc3ccccc3)[C@@H](OCc3ccccc3)[C@H](OCc3ccccc3)[C@H]2OCc2ccccc2)O[C@H]1n1ccc(=O)[nH]c1=O		100 µg/mL
O=C(NCN1CCN(c2cc3c(cc2F)c(=O)c(C(=O)O)cn3C2CC2)CC1)c1cnccn1		>62.5 µg/mL
CC(C)O[C@@H]1[C@H](OC(C)C)[C@@H](COS(=O)(=O)NC(=O)O[C@H]2C[C@@H](OC(=O)c3ccccc3)[C@H](OC(=O)c3ccccc3)[C@@H](COC(=O)c3ccccc3)O2)O[C@H]1n1ccc(=O)[nH]c1=O		100 µg/mL
Nc1ncnc2c1ncn2O[C@@H]1CS[C@@H](CO)O1		>100 µg/mL
CCCCCCCCCCSc1ncnc2c1ncn2CC(=O)OCC		>62.5 µg/mL
O=C(Nc1ccccc1N1CCSCC1)c1ccc(-c2ccccc2)cc1		64 µg/mL
C/C=N/NC(=O)c1ccncc1		>63 µg/mL
O=c1[nH]cnc2c1ncn2O[C@H]1CO[C@@H](CO)O1		>100 µg/mL
O=c1[nH]c(=O)n([C@H]2O[C@@H](CO)[C@H](O)C2(F)F)cc1Br		>100 µM
COc1ccc(/C=N/Nc2ccnc3cc(Cl)ccc23)c2ccccc12		3.4 µg/mL
CCn1cc(C(=O)O)c(=O)c2cc(F)c(N3CCN(CNC(=O)c4cnccn4)CC3)c(F)c21		>62.5 µg/mL
O=C(CCCCCCCCc1ccccc1)c1c(O)cc(O)c([C@@H]2C[C@@H](c3ccc(O)cc3)Oc3cc(O)ccc32)c1O		13.6 µg/mL
COC(=O)C(Cc1c[nH]c2ccccc12)NP(=O)(O)OCC1C/C1=C/n1cnc2c(N)ncnc21		91 µM
CN1CCN(c2ccccc2NCc2ccc(Cl)cc2)CC1		8 µg/mL
CC[C@H](/C=C/[C@@H](C)[C@H]1CC[C@H]2[C@@H]3C[C@@H](O)C4=CC(=O)CC[C@]4(C)[C@H]3CC[C@]12C)C(C)C		>102 µg/mL
Cc1cc(N/N=C/c2cc(C)n(-c3ccccc3)c2C)c2cc(C3CCCCC3)ccc2n1		6.6 µg/mL
CC(C)OC1[C@H](n2ccc(=O)[nH]c2=O)O[C@H](COS(=O)(=O)NC(=O)N[C@H]2O[C@H](COCc3ccccc3)[C@@H](OCc3ccccc3)[C@H](OCc3ccccc3)[C@H]2OCc2ccccc2)[C@H]1OC(C)C		200 µg/mL
Nc1nc(=O)n([C@@H]2O[C@@H](CO)[C@H](O)C2(F)F)cc1Cl		>100 µM
CC(=O)OC[C@H]1O[C@@H](OC(=O)NS(=O)(=O)OC[C@H]2O[C@@H](n3ccc(=O)[nH]c3=O)[C@H](OC(C)C)[C@@H]2OC(C)C)[C@@H](OC(C)=O)[C@@H](OC(C)=O)[C@@H]1OC(C)=O		>100 µg/mL
Cc1c(CN2CCSCC2)cc(-c2ccc(Cl)cc2)n1-c1ccc(Cl)cc1		32 µg/mL
O=c1[nH]cnc2c1ncn2O[C@H]1CS[C@@H](CO)O1		>100 µg/mL
COc1ccc2ccccc2c1/C=N/Nc1cc(C)nc2cc(Cl)ccc12		3.3 µg/mL
CCCCCCCCCCCC(=O)c1c(O)cc(O)c([C@@H]2C[C@@H](c3ccc(O)cc3)Oc3cc(O)ccc32)c1O		17.7 µg/mL
Cc1c(CN2CCN(C)CC2)cc(-c2ccccc2)n1-c1ccc(Cl)cc1		4 µg/mL
CC(C)(CO)[C@@H](O)CNC(=O)Cn1cc(C#Cc2ccc3c4cccc5cccc(c6cccc2c63)c54)c(=O)[nH]c1=O	MTT	>20 µM
Nc1ncnc2c1ncn2O[C@H]1CS[C@@H](CO)O1		>100 µg/mL
O=c1[nH]cnc2c1ncn2[C@@H]1O[C@@H](CO)[C@H](O)C1(F)F		>100 µM
Cc1cn([C@@H]2O[C@H](CO)[C@@H](CO)[C@@H]2F)c(=O)[nH]c1=O		≥100 µM
CCCCc1ccc2nc(C)cc(N/N=C/c3ccc4c(c3)OCO4)c2c1		6.8 µg/mL
CCn1cc(C(=O)O)c(=O)c2cc(F)c(N3CCN(CNC(=O)c4cnccn4)CC3)cc21		>62.5 µg/mL
COc1ccc(/C=N/Nc2cc(C)nc3ccc(F)cc23)c2ccccc12		1.9 µg/mL
CC#Cc1cn([C@H]2C[C@H](O)[C@@H](CO)O2)c(=O)[nH]c1=O		>500 µM
Nc1nc2c(ncn2[C@@H]2O[C@@H](CO)[C@H](O)C2(F)F)c(=O)[nH]1		>100 µM
CCCCCCCCCCCCSc1ncnc2c1ncn2CC(=O)OCC		>10 µg/mL
O=c1[nH]c(=O)n([C@H]2C[C@H](O)[C@@H](CO)O2)cc1C#Cc1cc2cccc3c4cccc5cccc(c(c1)c23)c54	MTT	>20 µM
O=C(C/C=C/c1ccccc1)Nc1ccc(N2CCSCC2)cc1		32 µg/mL
CC(C)(C)C(=O)OCn1c(=O)c(C#Cc2ccc3c4cccc5cccc(c6cccc2c63)c54)cn(CC(=O)NC[C@H](O)C(C)(C)CO)c1=O	MTT	>20 µM
Clc1ccc(CNc2cccc(N3CCSCC3)c2)cc1		8 µg/mL
COc1ncnc2c1ncn2O[C@H]1CS[C@@H](CO)O1		>100 µg/mL
O=C1NC2OC(c3cc4cccc5c6cccc7cccc(c(c3)c45)c76)=CC2=CN1[C@H]1C[C@H](O)[C@@H](CO)O1	MTT	>20 µM
c1ccc(-c2ccc(CNc3ccc(N4CCOCC4)cc3)cc2)cc1		8 µg/mL
CC[C@H](/C=C/[C@@H](C)[C@H]1CC[C@H]2[C@@H]3C(=O)C=C4C[C@@H](O)CC[C@]4(C)[C@H]3CC[C@]12C)C(C)C		>102 µg/mL

A second listing of 7 rows from above:

compound,read by,result
CN1CCN(c2ccccc2NCc2ccc(Cl)cc2)CC1,,8 µg/mL
CC(C)OC1[C@H](n2ccc(=O)[nH]c2=O)O[C@H](COS(=O)(=O)NC(=O)N[C@H]2O[C@H](COCc3ccccc3)[C@@H](OCc3ccccc3)[C@H](OCc3ccccc3)[C@H]2OCc2ccccc2)[C@H]1OC(C)C,,200 µg/mL
CCCCCCCCCCCCCCCCCCCCCC[C@@H](O)C(=O)N[C@@H](CO)[C@H](O)[C@H](O)CCCCCCCCCCCCCC,,>102 µg/mL
O=c1[nH]cnc2c1ncn2O[C@H]1CS[C@@H](CO)O1,,>100 µg/mL
CCn1cc(C(=O)O)c(=O)c2cc(F)c(N3CCN(CNC(=O)c4cnccn4)CC3)cc21,,>62.5 µg/mL
CC(C)O[C@@H]1[C@H](OC(C)C)[C@@H](COS(=O)(=O)NC(=O)O[C@H]2O[C@H](COCc3ccccc3)[C@@H](OCc3ccccc3)[C@H](OCc3ccccc3)[C@H]2OCc2ccccc2)O[C@H]1n1ccc(=O)[nH]c1=O,,100 µg/mL
CCCCCCCCCCCC(=O)c1c(O)cc(O)c([C@@H]2C[C@@H](c3ccc(O)cc3)Oc3cc(O)ccc32)c1O,,17.7 µg/mL